Consider four molecules from patent US10456414B2, “Methods for treating HCV” (priority 2011, dated 2019).

The structures appear in SMILES notation.

This experiment deals with HCV genotype 1a replicon. Kind of experiment: Antiviral combination studies with Compound 4, MacSynergy II. As to conditions: in combination with Compound 4.

As for `Fc1ccccc1-c1nc2ccn(Cc3ccc(-c4ccc(C(F)(F)F)cc4C(F)(F)F)nn3)cc-2n1` [Compound 1, 5-((6-(2,4-bis(trifluoromethyl)phenyl)pyridazin-3-yl)methyl)-2-(2-fluorophenyl)-5H-imidazo[4,5-c]pyridine], the Interaction result is “Minor synergy (Minor synergy: >25 and ≤50 nM^2%)”.
Turning to `CC[C@@H]1C[C@]1(NC(=O)[C@@H]1C[C@@H](Oc2cc(-c3csc(NC(C)C)n3)nc3c(Cl)c(OCCN4CCOCC4)ccc23)CN1C(=O)[C@@H](NC(=O)O[C@@H]1C[C@@H]2C[C@@H]2C1)C(C)(C)C)C(=O)O` [Compound 3], the Interaction entry is “Minor synergy (Minor synergy: >25 and ≤50 nM^2%)”.
Consider `CC1=CC[C@H](C(=O)N(c2cc(C#CC(C)(C)C)sc2C(=O)O)[C@H]2CC[C@](O)(CO[C@H]3CCOC3)CC2)CC1` [Compound 5, 5-(3,3-dimethylbut-1-yn-1-yl)-3-[(cis-4-hydroxy-4-{[(3S)-tetrahydrofuran-3-yloxy]methyl}cyclohexyl){[(1R)-4-methylcyclohex-3-en-1-yl]carbonyl}amino]thiophene-2-carboxylic acid], for which the Interaction result is “Minor synergy (Minor synergy: >25 and ≤50 nM^2%)”.
For the molecule `NC(=O)c1ncn([C@@H]2O[C@H](CO)[C@@H](O)[C@H]2O)n1` [Ribavirin, 1-β-D-ribofuranosyl-1H-1,2,4-Triazole-3-carboxamide, reference compound], the Interaction entry was “Minor antagonism (Minor antagonism: ≤−25 and >−50 nM^2%)”.
